A mixed list of measured activities; the numbers were collected in NIAID ChemDB.

Common to all: tests in culture; organism: HIV-1; cells: MT-4; measure: fold resistance

Fold resistance: result on the changed form divided by that on wild type.

| structure | strain | changes | read by | value |
|---|---|---|---|---|
| COc1ccc(S(=O)(=O)N(CC(C)C)C[C@@H](O)[C@H](Cc2ccccc2)NC(=O)[C@H](C(C)C)N2CC(=O)N(Cc3csc(C)n3)C2=O)cc1 | A17 (LPV-resistant) | PR-L10F V32I M46I I47V Q68E I84V | cytopathic effect / MTT | 15 |
| Cc1cc(C#N)cc(C(=O)c2cc(Cl)ccc2OCC(=O)Nc2ccc(OCCCN3CC=CC3)cc2C)c1 | Nevirapine-resistant (RT Y181C) | RT-Y181C | cytopathic effect / propidium iodide | ~1 |
| CCc1c(Cc2c(Cl)cccc2Cl)nc(SC/C=C/c2ccc(C#N)cc2)[nH]c1=O | NNRTI-resistant | RT-Y188L | cytopathic effect / MTT | >20 |
| CSCSc1nc(C(C)c2c(F)cccc2F)cc(=O)[nH]1 | IIIB | RT-Y181C | cytopathic effect / MTT | 36.25 |
| N#Cc1cc2[nH]c3ccccc3c2n(-c2ccc([N+](=O)[O-])cc2)c1=O | D | RT-L100I K103N | cytopathic effect / MTT | 3 |
| C=CCOCn1c(CC2CCCc3ccccc32)c(CC)c(=O)[nH]c1=O | N119 RT-Y181C NNRTI-resistant | RT-Y181C | cytopathic effect / MTT | >25 |
| CCc1c(C)[nH]c(=O)c(SCCC(N)=O)c1Oc1cc(C)cc(C)c1 |  | RT-K103N | cytopathic effect / MTT | 25 |
| CC(=O)CSc1nc(Cc2cccc3ccccc23)c(C)c(=O)[nH]1 | SO561945 | RT-K103N Y181C | cytopathic effect | ≥52 |
| Cn1c2ccccc2c2c1cc(C#N)c(=O)n2-c1ccc([N+](=O)[O-])cc1 | I | RT-K101E K103N | cytopathic effect / MTT | 3 |
| CCC(C)[C@@H](C(=O)N[C@@H](Cc1ccccc1)[C@H](O)CN(CC(C)C)S(=O)(=O)c1ccc(/C=N/O)cc1)N1CC(=O)N(Cc2ccccn2)C1=O | A17 (LPV-resistant) | PR-L10F V32I M46I I47V Q68E I84V | cytopathic effect / MTT | 2 |
| Cc1cc(NS(=O)(=O)CC2CCCCC2)c(C)c(C(OC(C)(C)C)C(=O)O)c1-c1ccc2c(c1)CCCO2 | NL4-3 | N222K | p24 / luminescence | 1 |
| CCc1c(Cc2cccc(Cc3nc(SC(C)C)[nH]c(=O)c3CC)c2)nc(SC(C)C)[nH]c1=O | RT-K103N+Y181C NNRTI-resistant | RT-K103N Y181C | cytopathic effect / MTT | >2.5 |
| Cc1cc(N2CCS(=O)CC2)ccc1NC(=O)COc1ccc(Cl)cc1C(=O)c1cccs1 | Nevirapine-resistant (RT Y181C) | RT-Y181C | cytopathic effect / propidium iodide | ~1 |
| CSCSc1nc(Cc2c(F)cccc2F)c(C)c(=O)[nH]1 | IIIB | RT-K103N Y181C | cytopathic effect / MTT | >1000 |
| CCc1c(Cc2cccc(Cc3nc(SC)nc(OC)c3CC)c2)nc(SC)nc1OC | RT-K103N+Y181C NNRTI-resistant | RT-K103N Y181C | cytopathic effect / MTT | >2.4 |
| CCc1c(C)[nH]c(=O)c(OC)c1Oc1cc(C)cc(C)c1 |  | RT-L100I | cytopathic effect / MTT | 13 |
| CCOCn1c(CC2CCCc3ccccc32)c(CC)c(=O)[nH]c1=O | N119 RT-Y181C NNRTI-resistant | RT-Y181C | cytopathic effect / MTT | >25 |
| C=CCOCn1c(Cc2cccc(Cc3c(CC)c(=O)[nH]c(=O)n3COCC=C)c2)c(CC)c(=O)[nH]c1=O | NNRTI-resistant | RT-Y181C | cytopathic effect / MTT | >2.9 |
| Cc1ccc(C2CC2)c(-c2ccc3c(c2C)CCCO3)c1[C@H](OC(C)(C)C)C(=O)O | NL4-3 | PI-resistant ARP-4595 (M46I/L63P/V82T/I84V) | luminescence | 1 |
| COc1c(Cl)ccc2c1[C@@](C#Cc1cccnc1)(C(F)(F)F)NC(=O)N2 |  | RT-L100I K103N | p24 | 357.9 |
| CCCc1c(Cc2cc(C)cc(C)c2)n(COCC2CC=CCC2)c(=O)[nH]c1=O | NNRTI-resistant (RT K103N Y181C) A17 | RT-K103N Y181C | cytopathic effect / MTT | >1250 |
| Cc1cc(S(N)(=O)=O)ccc1NC(=O)COc1ccc(Cl)cc1C(=O)c1cc(F)cc(F)c1 | Nevirapine-resistant (RT Y181C) | RT-Y181C | cytopathic effect / propidium iodide | ~1 |
| CC(C)CN(C[C@@H](O)[C@H](Cc1ccccc1)NC(=O)[C@@H](N1CCN(Cc2cccnc2)C1=O)C(C)(C)C)S(=O)(=O)c1ccc(/C=N/O)cc1 | A17 (LPV-resistant) | PR-L10F V32I M46I I47V Q68E I84V | cytopathic effect / MTT | 1 |
| Cc1cn([C@H]2C=C[C@@H](CO)O2)c(=O)[nH]c1=O | HXB2 | RT-K65R | cytopathic effect / MTT | 1.2 |
| CC(C)[C@H](NC(=O)OCc1ccccn1)C(=O)N[C@@H](Cc1ccccc1)[C@@H](O)C[C@H](Cc1ccccc1)NC(=O)OCc1cccnc1 | NL4-3 | PR-M46I V82T | p24 | 1.875 |
| Cc1cc(C)c(Oc2nc(Nc3ccc(C#N)cc3)c(=O)n(C)c2C)c(C)c1 |  | RT-Y181C | cytopathic effect / MTT | 100.2 |
| CCC(C)[C@@H](C(=O)N[C@@H](Cc1ccccc1)[C@H](O)CN(CC(C)C)S(=O)(=O)c1ccc(/C=N/O)cc1)N1CCN(Cc2cnccc2C)C1=O | A17 (LPV-resistant) | PR-L10F V32I M46I I47V Q68E I84V | cytopathic effect / MTT | 2 |
| COc1ccc(/C=C/CSc2nc(Cc3c(F)cccc3F)c(C)c(=O)[nH]2)cc1 | NNRTI-resistant | RT-Y181C | cytopathic effect / MTT | >9139 |
| CCc1c(Cc2cc(C)cc(C)c2)n(COC2C=CCCC2)c(=O)[nH]c1=O | NNRTI-resistant (RT K103N Y181C) A17 | RT-K103N Y181C | cytopathic effect / MTT | >2500 |
| C#CCOCn1c(C(=C)c2cc(C)cc(C)c2)c(CC)c(=O)[nH]c1=O | IIIB | RT-Y181C | cytopathic effect / MTT | 567 |
| CCc1c(C)[nH]c(=O)c(SC)c1Oc1cc(C)cc(C)c1 |  | RT-Y188L | cytopathic effect / MTT | 63 |
| CCc1c(Cc2cc(C)cc(C)c2)n(COC/C=C/c2ccccc2)c(=O)[nH]c1=O | NNRTI-resistant (RT K103N Y181C) A17 | RT-K103N Y181C | cytopathic effect / MTT | 3333 |
| O=C1Nc2ccc(Cl)cc2[C@@](/C=C/C2CC2)(C(F)(F)F)N1 |  | RT-K103N | p24 | 12.86 |
| Nc1nc(NC2CC2)c2ncn([C@H]3C=C[C@@H](CO)C3)c2n1 | XM-T69SSS | RT-T69SSS L210W T215Y | p24 | 17 |
| COc1ccc(/C=C/CSc2nc(C(C)c3c(Cl)cccc3Cl)c(C)c(=O)[nH]2)cc1 | NNRTI-resistant | RT-Y188L | cytopathic effect / MTT | 14000 |
| CCOCn1c(Cc2cccc(Cc3[nH]c(=O)[nH]c(=O)c3CC)c2)c(CC)c(=O)[nH]c1=O | NNRTI-resistant | RT-Y181C | cytopathic effect / MTT | >2.1 |
| O=C1Nc2ccc(Cl)c3c2[C@](C(F)(F)F)(C=C(c2cccnc2)O3)N1 |  | RT-L100I K103N | p24 | 195 |
| CCOCn1c(Cc2ccccc2)c(C(C)C)c(=O)[nH]c1=O | IIIB | RT-Y181C | cytopathic effect / MTT | 2200 |
| O=C1Nc2ccc(Cl)c(O)c2[C@@](C#Cc2ccccc2)(C(F)(F)F)N1 |  | RT-L100I K103N | p24 | 284.7 |
| CC(C)CN(C[C@@H](O)[C@H](Cc1ccccc1)NC(=O)[C@H](C(C)C)N1CC(=O)N(Cc2ccccn2)C1=O)S(=O)(=O)c1ccc(/C=N/O)cc1 | A17 (LPV-resistant) | PR-L10F V32I M46I I47V Q68E I84V | cytopathic effect / MTT | 5 |
| CCCc1c(Cc2cc(C)cc(C)c2)n(COC/C=C/c2ccccc2)c(=O)[nH]c1=O | NNRTI-resistant (RT K103N Y181C) A17 | RT-K103N Y181C | cytopathic effect / MTT | >1666 |
| CC(C)CN(C[C@@H](O)[C@H](Cc1ccccc1)NC(=O)[C@H](C(C)C)N1CC(=O)N(Cc2ccncc2)C1=O)S(=O)(=O)c1ccc(/C=N/O)cc1 | A17 (LPV-resistant) | PR-L10F V32I M46I I47V Q68E I84V | cytopathic effect / MTT | 0.94 |
| CCCc1c(Cc2cc(C)cc(C)c2)n(COC/C(C)=C/c2ccccc2)c(=O)[nH]c1=O | NNRTI-resistant (RT K103N Y181C) A17 | RT-K103N Y181C | cytopathic effect / MTT | >3333 |
| C=C(c1cc(C)cc(C)c1)c1c(CC)c(=O)[nH]c(=O)n1COC/C(C)=C/c1ccccc1 | IIIB | RT-Y181C | cytopathic effect / MTT | 233.3 |
| COC(=O)Nc1nc2ccc(S(=O)(=O)N(CC(C)C)C[C@@H](O)[C@H](Cc3ccccc3)NC(=O)OC3COC4OCCC34)cc2[nH]1 | R13080 | PR-L10F M46I M71V I84V | cytopathic effect / MTT | 1.3 |
| C=CCOCn1c(C(=C)c2cc(C)cc(C)c2)c(CC)c(=O)[nH]c1=O | IIIB | RT-K103N Y181C | cytopathic effect / MTT | 3330 |
| CCOC(=O)CSc1nc(Cc2cccc3ccccc23)c(C)c(=O)[nH]1 | SO561945 | RT-K103N Y181C | cytopathic effect | ≥45.3 |
| Cc1cc(S(N)(=O)=O)ccc1NC(=O)COc1ccc(Cl)cc1C(=O)c1cccc(C#N)n1 | Nevirapine-resistant (RT Y181C) | RT-Y181C | cytopathic effect / propidium iodide | ~1 |
| CCC(C)[C@@H](C(=O)N[C@@H](Cc1ccccc1)[C@H](O)CN(CC(C)C)S(=O)(=O)c1ccc(/C=N/O)cc1)N1CCN(Cc2cccnc2)C1=O | A17 (LPV-resistant) | PR-L10F V32I M46I I47V Q68E I84V | cytopathic effect / MTT | 2 |
| C=CCOCn1c(Cc2cccc(Cc3[nH]c(=O)[nH]c(=O)c3CC)c2)c(CC)c(=O)[nH]c1=O | NNRTI-resistant | RT-Y181C | cytopathic effect / MTT | >9.1 |
| Cc1ccc(Oc2cn(C)c(=O)c(Nc3ccc(F)cc3)n2)c(C)c1 |  | RT-Y188L | cytopathic effect / MTT | >7.95 |
| CCOCn1c(Cc2cccc(Cc3c(CC)c(=O)[nH]c(=O)n3COCC)c2)c(CC)c(=O)[nH]c1=O | NNRTI-resistant | RT-Y181C | cytopathic effect / MTT | >7.1 |
| CCc1c(C)[nH]c(=O)c(C(C)C)c1Oc1cc(C)cc(C)c1 |  | RT-Y188L | cytopathic effect / MTT | 2 |
| CCOCn1c(Cc2ccccc2)c(C(C)C)c(=O)[nH]c1=O | RT-K103N+Y181C NNRTI-resistant | RT-K103N Y181C | cytopathic effect / MTT | >3330 |
| C=Cc1c(Oc2cc(C)cc(C)c2)c(CC)c(C)[nH]c1=O |  | RT-K103N | cytopathic effect / MTT | 1 |
| Cc1cn([C@H]2C=C[C@@H](CO)O2)c(=O)[nH]c1=O | XM-M184V | RT-M184V | p24 | 1 |
| CCc1c(Cc2cc(C)cc(C)c2)n(COC/C(C)=C/c2ccccc2)c(=O)[nH]c1=O | NNRTI-resistant (RT Y181C) N119 | RT-Y181C | cytopathic effect / MTT | 666 |
| CC(C)=CCN1Cc2cc(Cl)cc3[nH]c(=O)n(c23)C[C@@H]1C | IIIB | RT-L100I | cytopathic effect / XTT | >88 |

Rows are shuffled and stem from different studies. An empty or dashed field is not shown.